Measurements reported in article PMC4038613, “A New Class of Multimerization Selective Inhibitors of HIV-1 Integrase” (PLoS Pathogens, 2014).

Biological target: A128T IN (Human immunodeficiency virus type 1 group M subtype B, UniProt P12497, A1275T)
Type: biochemical, HIV-1

Cc1nc(-c2nc3ccc(Cl)cc3[nH]2)c(C)c(-c2ccccc2)c1C(OC(C)(C)C)C(=O)O (stereo not shown) [KF116]
aberrant IN multimerization of A128T IN in vitro: potently promoted aberrant IN multimerization of A128T IN
